PubChem BioAssay AID504761 – Drosophila RNAi Screening Center | 2011

Screen: 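Genome-wide fly cell screen for genes dengue virus requires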 (primary screen)
Cell system: D.Mel-2 cells from Drosophila
Knock-down reagent: long dsRNA against Drosophila genes
Conditions: infection with dengue virus type 2; dose and infection time not stated
Read-out: 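Cells stained for dengue envelope protein and imaged; percent of infected cells per well on duplicate plates, ranked by infection, with stained nuclei counted for cell number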
Direction: infection score: higher = more virus-infected cells; cell count: higher = more cells in the well
Call rule: 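Very low infection ranking in both replicate wells (chance probability at most 0.065), then a retest showing infection dropped 1.5-fold or more at p below 0.05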
Calls: active = confirmed: knock-down lowers infection; inactive = not picked or not confirmed
The screen tested about 22,000 reagents; this is an unselected part of those with a known target gene and a result. Over the whole deposit, 116 (0.52%) got an active call. 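Calls depend on retest data that are not deposited; infection was ranked per plate without normalising between plates; the unit of the infection score is not given.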 Raw values vary from plate to plate and are shown uncorrected. Not stated in the record: the amount of reagent, the time to read-out.

target,DRSC id,"infection score, replicate 1","infection score, replicate 2","cell count, replicate 1","cell count, replicate 2",Call
TM9SF4 (Transmembrane 9 superfamily protein member 4),DRSC01888,30.6,13.4,6406,6572,inactive
TM9SF4 (Transmembrane 9 superfamily protein member 4),DRSC02537,3.09,0.63,6544,6866,inactive
CG5854,DRSC15894,6.11,6.26,6579,6872,inactive
CG5854,DRSC28599,11.8,12.6,5288,4232,inactive
CG15535,DRSC15071,7.82,6,6751,2000,inactive
CG15252,DRSC17981,16.1,9.44,5405,4999,inactive
CG15252,DRSC29645,27.8,,6088,413,inactive
CG32440,DRSC11480,0.89,0.79,6370,6809,inactive
Gen (XPG-like endonuclease),DRSC09679,5.57,3.58,6514,6639,inactive
Cdk4 (Cyclin-dependent kinase 4),DRSC07358,10.4,6.23,6678,6401,inactive
Cdk4 (Cyclin-dependent kinase 4),DRSC27263,16.6,22,6074,6224,inactive
CG8617,DRSC07223,4.61,4.55,6935,6597,inactive
CG12868,DRSC06207,4.04,1.42,6404,6604,active
CG12868,DRSC26377,5.65,13.9,6192,4674,inactive
"Alg11 (ALG11, alpha-1,2-mannosyltransferase)",DRSC11647,27.5,13.7,6048,6548,inactive
5-HT1B (5-hydroxytryptamine (serotonin) receptor 1B),DRSC05031,3.36,3.46,5984,6164,inactive
5-HT1B (5-hydroxytryptamine (serotonin) receptor 1B),DRSC05769,3.37,6.48,3917,4198,inactive
5-HT1B (5-hydroxytryptamine (serotonin) receptor 1B),DRSC25996,9.57,2.88,6304,6772,inactive
Nap1 (Nucleosome assembly protein 1),DRSC04626,37.3,1.33,4770,676,inactive
CG13658,DRSC14659,4.25,3.07,6357,6839,inactive
CG13658,DRSC25434,10.4,9.31,5893,5369,inactive
Xrcc2 (X-ray repair cross complementing 2),DRSC19984,3.05,10.5,6292,5957,inactive
Xrcc2 (X-ray repair cross complementing 2),DRSC29513,,12.6,311,3188,inactive
p38b (p38b MAP kinase),DRSC03586,1.4,0.82,6568,6737,inactive
CG2608,DRSC02709,11.7,7.29,6323,6133,inactive
Elk (Eag-like K[+] channel),DRSC07608,11.2,9.9,6409,6281,inactive
CG1092,DRSC12151,15.9,20.5,3973,5951,inactive
CG1092,DRSC24479,1.24,1.37,6539,6427,inactive
CG14454,DRSC11711,5.34,2.56,6764,6480,inactive
CG14454,DRSC23866,10.6,11.8,5283,4786,inactive
APC7 (Anaphase Promoting Complex subunit 7),DRSC17937,2.85,4.57,6133,6498,inactive
APC7 (Anaphase Promoting Complex subunit 7),DRSC27097,8.33,8.27,6437,6565,inactive
CG2247,DRSC19844,4.78,3.2,6236,6187,inactive
Alp11 (Alkaline phosphatase 11),DRSC20080,,25.9,349,6047,inactive
CG4004,DRSC19791,1.57,4.85,6295,6347,inactive
CG4004,DRSC19882,1.07,4.87,374,6018,inactive
CG4004,DRSC26904,11.3,3.25,6706,6803,inactive
zormin,DRSC07969,3.83,1.27,6195,6244,inactive
zormin,DRSC08210,3,2.4,6291,6247,inactive
zormin,DRSC08212,4.35,3.42,5860,6600,inactive
zormin,DRSC08213,3.49,2.25,5895,6478,inactive
zormin,DRSC08297,2.35,4.68,6168,6630,inactive
zormin,DRSC22483,4.6,8.24,5498,6495,inactive
unc80 (uncoordinated 80),DRSC15329,2.35,0.49,639,607,inactive
lilli (lilliputian),DRSC00708,3.36,2.79,5543,6155,inactive
CG30323,DRSC07656,10.9,7.76,7168,6518,inactive
Gr47a (Gustatory receptor 47a),DRSC06221,6.41,11.5,6378,6563,inactive
Dip-B (Dipeptidase B),DRSC16466,5.56,13.6,5993,6687,inactive
Dip-B (Dipeptidase B),DRSC25975,2.07,1.07,6324,6832,inactive
timeout,DRSC12950,3.44,1.47,6021,5913,inactive
timeout,DRSC17078,4.04,3.58,6592,6822,inactive
timeout,DRSC17079,7.72,7.24,6325,6591,inactive
timeout,DRSC17080,1.82,7.83,6864,6474,inactive
timeout,DRSC17081,7.82,22.4,6609,3799,inactive
timeout,DRSC21535,4.11,3.72,6106,6363,inactive
CG13022,DRSC09902,2.59,2.59,6476,6407,inactive
fus (fusilli),DRSC05569,0.48,2.98,6228,6413,inactive
fus (fusilli),DRSC07107,21.3,7.25,5110,6617,inactive
CdGAPr (Cd GTPase activating protein-related),DRSC03289,11.6,18.8,5786,2626,inactive
Rich (RIC1 homolog),DRSC11607,7.98,9.78,5851,6728,inactive
Rich (RIC1 homolog),DRSC28514,2.3,8.79,1783,1764,inactive
por (porcupine),DRSC20362,3.1,6.96,5896,6218,inactive
por (porcupine),DRSC29877,11.3,14,5561,5875,inactive
cysu (Curly Su),DRSC15902,5.64,1.44,5120,6124,inactive
cysu (Curly Su),DRSC28838,13.7,12.5,5142,4489,inactive
CG12716,DRSC19493,1.5,3.04,5719,6078,inactive
CG12716,DRSC28802,3.71,20,755,3713,inactive
Mco4 (Multicopper oxidase 4),DRSC20061,6.78,4.39,6713,6694,inactive
Mco4 (Multicopper oxidase 4),DRSC27932,12.9,13.8,5874,1564,inactive
HSPBAP1 (HSPB1 associated protein 1),DRSC14567,5.72,17.5,6693,5800,inactive
CG33060,DRSC09939,2.59,4.75,5786,5793,inactive
CG33189,DRSC21427,5.93,0.91,6591,6920,inactive
CG33189,DRSC25923,1.08,7.58,6510,6294,inactive
CG4377,DRSC04467,22.9,50.1,6018,5096,inactive
CG4377,DRSC28406,15.7,7.88,3821,2499,inactive

Records above whose target name starts with P or p:
target,DRSC id,"infection score, replicate 1","infection score, replicate 2","cell count, replicate 1","cell count, replicate 2",Call
p38b (p38b MAP kinase),DRSC03586,1.4,0.82,6568,6737,inactive
por (porcupine),DRSC20362,3.1,6.96,5896,6218,inactive
por (porcupine),DRSC29877,11.3,14,5561,5875,inactive
